Measured values from several laboratories, pooled; numbers as filed in NIAID ChemDB.

All rows: growth or infection tests; agent: Candida albicans

ECn is the concentration giving n% inhibition of infection, replication or growth. A number after MIC or MFC names an inhibition level or a share of isolates. Rows are shuffled and stem from different studies.

{"smiles": "C[C@@H](n1cnc2cc(N3CCOC3=O)ccc2c1=O)[C@](O)(Cn1cncn1)c1ccc(F)cc1F", "strain": "60 strains", "read-out": "MIC", "result": "1.25 µg/mL"}
{"smiles": "CCC(C)CC(C)CCCCCCCCC(=O)N[C@H]1C[C@@H](O)[C@H](NCCN)NC(=O)[C@@H]2[C@@H](O)CCN2C(=O)[C@H]([C@H](O)CCN)NC(=O)[C@H]([C@H](O)[C@@H](O)c2ccc(O)cc2)NC(=O)[C@@H]2C[C@@H](O)CN2C(=O)[C@H]([C@@H](C)O)NC1=O", "conditions": "pH 5", "strain": "10 isolates", "read by": "broth dilution", "read-out": "EC90", "result": "0.06 µg/mL"}
{"smiles": "Clc1ccc(C2CC(c3cccs3)=NN2c2nc(-c3ccccc3)cs2)cc1", "strain": "Clinical isolates", "read-out": "MIC", "result": "250 µg/mL"}
{"smiles": "C[C@@H](n1ncn(-c2ccc(OCC(F)(F)C(F)F)cc2)c1=O)[C@](O)(Cn1cncn1)c1ccc(F)cc1F", "strain": "76 strains", "read-out": "MIC", "result": "10 µg/mL"}
{"smiles": "Cc1ccc(-c2csc(N3N=C(c4cccs4)CC3c3ccc([N+](=O)[O-])cc3)n2)cc1", "strain": "Clinical isolates", "read-out": "MIC", "result": "250 µg/mL"}
{"smiles": "CC[C@@H]([C@H](C)O)n1ncn(-c2ccc(N3CCN(c4ccc(OC[C@@H]5CO[C@@](Cn6cncn6)(c6ccc(F)cc6F)C5)cc4)CC3)cc2)c1=O", "conditions": "pH 7", "strain": "15 isolates", "read by": "broth dilution", "read-out": "MIC", "result": "0.03 µg/mL"}
{"smiles": "O=C(OCC1COC(Cn2ccnc2)(c2ccc(-c3ccccc3)cc2)O1)c1ccccc1", "strain": "44 strains", "read-out": "Mean MIC", "result": "15.9 µg/mL"}
{"smiles": "C[C@@H](n1cnc2cc(Cl)ccc2c1=O)[C@](O)(Cn1cncn1)c1ccccc1F", "strain": "60 strains", "read-out": "MIC", "result": "≤0.03 µg/mL"}
{"smiles": "CC[C@@H]([C@H](C)O)n1ncn(-c2ccc(N3CCN(c4ccc(OC[C@@H]5CO[C@@](Cn6cncn6)(c6ccc(F)cc6F)C5)cc4)CC3)cc2)c1=O", "strain": "10 strains (fluconazole- itraconazole-susceptible)", "read-out": "MIC90", "result": "<0.03 µg/mL"}
{"smiles": "COC(=O)[C@H]1[C@@H]2C[C@@H](O[C@@H]3O[C@H](C)[C@@H](O)[C@H](N)[C@@H]3O)/C=C/C=C/C=C/C=C/C=C/C=C/C=C/[C@H](C)[C@@H](O)[C@H](C)[C@H](C)OC(=O)C[C@H](O)C[C@H](O)[C@@H](O)CC[C@H](O)C[C@H](O)C[C@](O)(C[C@@H]1O)O2", "conditions": "pH 7", "strain": "10 isolates", "read by": "broth dilution", "read-out": "EC90", "result": "1 µg/mL"}
{"smiles": "CCC1N=C(N)N=C(N)N1OCc1cccc2ccccc12", "read-out": "MIC", "result": ">240 µg/mL"}
{"smiles": "C[C@H]1[C@H](O)[C@@H](C)/C=C/C=C/C=C/C=C/C=C/C=C/C=C/[C@H](O[C@@H]2O[C@H](C)[C@@H](O)[C@H](N)[C@@H]2O)C[C@@H]2O[C@](O)(C[C@@H](O)C[C@@H](O)CC[C@H](O)[C@@H](O)C[C@@H](O)CC(=O)O[C@H]1C)C[C@H](O)[C@H]2C(=O)O", "strain": "ATCC 90028", "read by": "broth dilution", "read-out": "MFC", "result": "0.5 µg/mL"}
{"smiles": "CCC(C)n1ncn(-c2ccc(N3CCN(c4ccc(OC[C@H]5CO[C@](Cn6cncn6)(c6ccc(Cl)cc6Cl)O5)cc4)CC3)cc2)c1=O", "conditions": "pH 7", "strain": "10 isolates", "read by": "broth dilution", "read-out": "EC90", "result": "0.03 µg/mL"}
{"smiles": "C[C@@H](n1cnc2cc(F)ccc2c1=O)[C@](O)(Cn1cncn1)c1ccc(F)cc1F", "strain": "76 strains", "read-out": "MIC", "result": "0.31 µg/mL"}
{"smiles": "C[C@H]1[C@H](O)[C@@H](C)/C=C/C=C/C=C/C=C/C=C/C=C/C=C/[C@H](O[C@@H]2O[C@H](C)[C@@H](O)[C@H](N)[C@@H]2O)C[C@@H]2O[C@](O)(C[C@@H](O)C[C@@H](O)CC[C@H](O)[C@@H](O)C[C@@H](O)CC(=O)O[C@H]1C)C[C@H](O)[C@H]2C(=O)O", "strain": "FR2", "read-out": "MIC", "result": "0.008 µg/mL"}
{"smiles": "Fc1ccc(CCCCn2c3c(c4cc(F)ccc42)CNCC3)cc1", "strain": "OY2-79", "read-out": "MIC", "result": "1 µg/mL"}
{"smiles": "OC[C@H]1CO[C@](Cn2ccnc2)(c2ccc(-c3ccccc3)cc2)O1", "strain": "44 strains", "read-out": "MIC50", "result": "64 µg/mL"}
{"smiles": "C[C@@H](NC(=O)c1ccc(Cl)cc1NC=O)[C@](O)(Cn1cncn1)c1ccc(F)cc1F", "strain": "76 strains", "read-out": "MIC", "result": "0.07 µg/mL"}
{"smiles": "Cc1ccc(O)c(C(=O)/C=C/c2ccc(O)cc2O)c1", "strain": "SDAU2", "read-out": "MIC", "result": "50 µg/mL"}
{"smiles": "C[C@@H](c1nc(-c2ccc(C#N)cc2)cs1)[C@](O)(Cn1cncn1)c1ccc(F)cc1F", "strain": "60 strains", "read-out": "MIC", "result": "≤0.03 µg/mL"}
{"smiles": "Clc1ccc(COC(Cn2ccnc2)c2ccc(Cl)cc2Cl)c(Cl)c1", "strain": "KULM 83-0030", "read-out": "MIC", "result": "0.5 µg/mL"}
{"smiles": "C[C@H]1[C@H](O)[C@@H](C)/C=C/C=C/C=C/C=C/C=C/C=C/C=C/[C@H](O[C@@H]2O[C@H](C)[C@@H](O)[C@H](N)[C@@H]2O)C[C@@H]2O[C@](O)(C[C@@H](O)C[C@@H](O)CC[C@H](O)[C@@H](O)C[C@@H](O)CC(=O)O[C@H]1C)C[C@H](O)[C@H]2C(=O)O", "strain": "ATCC64550", "read-out": "MIC", "result": "0.5 µg/mL"}
{"smiles": "C[C@@H](n1cnc2cc(OCC(F)(F)F)ccc2c1=O)[C@](O)(Cn1cncn1)c1ccc(F)cc1F", "strain": "76 strains", "read-out": "MIC", "result": "0.31 µg/mL"}
{"smiles": "CCCCCCCCCCON1C(N)=NC(N)=NC1/C=C/c1ccccc1", "read-out": "MIC", "result": "15 µg/mL"}
{"smiles": "CS(=O)(=O)OCC1COC(Cn2ccnc2)(c2ccc(-c3ccccc3)cc2)O1", "strain": "44 strains", "read-out": "MIC90", "result": "256 µg/mL"}
{"smiles": "C[C@@H](n1cnc2cc(OCC(F)F)ccc2c1=O)[C@](O)(Cn1cncn1)c1ccc(F)cc1F", "strain": "60 strains", "read-out": "MIC", "result": "0.15 µg/mL"}
{"smiles": "CS(=O)(=O)OC[C@H]1CO[C@](Cn2ccnc2)(c2ccc(-c3ccccc3)cc2)O1", "strain": "44 strains", "read-out": "MIC50", "result": "64 µg/mL"}
{"smiles": "C=CCc1ccc(O)c(OC)c1", "strain": "2434", "read by": "turbidity", "read-out": "MIC90", "result": "475 µg/mL"}
{"smiles": "Cc1ccc(-c2csc(N3N=C(c4cccs4)CC3c3ccccc3)n2)cc1", "strain": "Clinical isolates", "read-out": "MIC", "result": "62.5 µg/mL"}
{"smiles": "Cc1cccc2ncn([C@H](C)[C@](O)(Cn3cncn3)c3ccc(F)cc3F)c(=O)c12", "strain": "76 strains", "read-out": "MIC", "result": "10 µg/mL"}
{"smiles": "CC1(C)N=C(N)N=C(N)N1OCc1cccc2ccccc12", "read-out": "MIC", "result": ">240 µg/mL"}
{"smiles": "COc1ccc(C2CC(c3cccs3)=NN2c2nc(-c3ccccc3)cs2)cc1", "strain": "Clinical isolates", "read-out": "MIC", "result": "62.5 µg/mL"}
{"smiles": "O=C(/C=C/c1ccc(O)cc1O)c1ccccc1", "strain": "SDAU2", "read-out": "MIC", "result": "75 µg/mL"}
{"smiles": "CC1CCC2(CC1)N=C(N)N=C(N)N2OCc1cccc2ccccc12", "read-out": "MIC", "result": "125 µg/mL"}

The first 2 rows once more:

{"smiles": "C[C@@H](n1cnc2cc(N3CCOC3=O)ccc2c1=O)[C@](O)(Cn1cncn1)c1ccc(F)cc1F", "strain": "60 strains", "read-out": "MIC", "result": "1.25 µg/mL"}
{"smiles": "CCC(C)CC(C)CCCCCCCCC(=O)N[C@H]1C[C@@H](O)[C@H](NCCN)NC(=O)[C@@H]2[C@@H](O)CCN2C(=O)[C@H]([C@H](O)CCN)NC(=O)[C@H]([C@H](O)[C@@H](O)c2ccc(O)cc2)NC(=O)[C@@H]2C[C@@H](O)CN2C(=O)[C@H]([C@@H](C)O)NC1=O", "conditions": "pH 5", "strain": "10 isolates", "read by": "broth dilution", "read-out": "EC90", "result": "0.06 µg/mL"}